In patent publication US11382924B2, “Compounds and pharmaceutical uses thereof” (priority 2020, dated 2022):

What was measured:
SARS-CoV-2 3CLPro = SARS-CoV-2 3CLPro (Severe acute respiratory syndrome coronavirus 2, UniProt P0DTD1)
[1] = target: SARS-CoV-2 viral 3CL protease (Severe acute respiratory syndrome coronavirus 2, UniProt P0DTD1); details: 1 μM sample
2019-nCoV 3CLPro = 2019-nCoV 3CLPro (Severe acute respiratory syndrome coronavirus 2, UniProt P0DTD1); test: 2019-nCoV 3CLPro fluorogenic protease activity assay at 3 μM (35 nM protease, pH 7.0); details: 3 μM sample

## O=C(OC[C@H]1O[C@H](OC(=O)c2cc(O)c(O)c(OC(=O)c3cc(O)c(O)c(OC(=O)c4cc(O)c(O)c(O)c4)c3)c2)[C@H](OC(=O)c2cc(O)c(O)c(OC(=O)c3cc(O)c(O)c(OC(=O)c4cc(O)c(O)c(O)c4)c3)c2)[C@@H](OC(=O)c2cc(O)c(O)c(OC(=O)c3cc(O)c(O)c(OC(=O)c4cc(O)c(O)c(O)c4)c3)c2)[C@@H]1OC(=O)c1cc(O)c(O)c(OC(=O)c2cc(O)c(O)c(OC(=O)c3cc(O)c(O)c(O)c3)c2)c1)c1cc(O)c(O)c(OC(=O)c2cc(O)c(O)c(OC(=O)c3cc(O)c(O)c(O)c3)c2)c1
SARS-CoV-2 3CLPro; Table 34, final DMSO concentration 0.05%
  IC50: 421 nM
SARS-CoV-2 3CLPro; samples of Table 34, 50 nM protease, 6 μM substrate
  50% inhibition concentration (IC50) against SARS-CoV-2 3CLPro: 1.037 µg/mL
[1]
  Residual Protease Activity (%) 1 μM: 32%
2019-nCoV 3CLPro
  Residual Protease Activity (%) 3 μM: −7%
